Data on 5 substances can be found in PMC11142304.

This experiment has as its target ATP. Description: ITC. Conditions: parent: 15.37 ± 4.85.
For LnaB (recombinant, ITC and AUC) S261A, the dissociation constant (Kd) worked out at 14.4 µM.
The same measure for LnaB (recombinant, ITC and AUC) D183A: 16.1 µM; for LnaB (recombinant, ITC and AUC) E309A: 13.2 µM.
With LnaB (recombinant, ITC and AUC) Y196A the figure was 13.8 µM; with LnaB (recombinant, ITC and AUC) H305A, 16.3 µM.
